# Primary screen of a compound library

Source: ChEMBL document CHEMBL3988442, “University of Dundee, Small-Polar-MMV Screening Library” (2021).

Mtb cholesterol medium: 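Whole-cell growth test on Mycobacterium tuberculosis, read after 4 days in a medium based on cholesterol and the lipid DPPC; the read-out is not stated. Concentration: 500 µM. Direction is inferred from retests: higher values go with more growth inhibition. Of about 18,000 compounds tested this way, about 900 (5%) reached 50% or more in at least one test.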
Mtb glucose medium: 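Whole-cell growth test on Mycobacterium tuberculosis, read after 3 days in glucose-containing 7H9 medium; the read-out is not stated. Compounds at 500 µM. The record gives no direction; compounds that gave an IC50 in retests scored well above the rest, so higher reads as more growth inhibition. Size under these conditions: about 18,000 compounds, about 1,400 of them at 50% or above in at least one test.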

Each number is a percent effect as filed. The record does not define 0% and 100%; most values in the screen are far below 50% and negative numbers occur (in some assays of this library far below -100). The entries come from a sample that favours strong results.

For CN(C)C(=O)CCCn1nnc(-c2ccsc2)n1 the result was Mtb cholesterol medium: 76.36%; Mtb glucose medium: 70.05%.
For O=C(CCc1ccccc1)NC1CCNCC1 the result was Mtb cholesterol medium: 16.05%.
For CCc1oc(C(=O)NC(COC)C(N)=O)cc1C (stereo unspecified) the result was Mtb glucose medium: -7.847%.
For CC(=O)NC(C)c1cccc(N2CCCC2=O)c1 (stereo unspecified) the result was Mtb cholesterol medium: 3.519%.
For CN(CC(=O)Nc1ccc(Br)cn1)C1CCOC1=O (stereo unspecified) the result was Mtb glucose medium: 20.76%.
For CN1CCN(CCCNC(=O)c2ccco2)CC1 the result was Mtb cholesterol medium: -11.42%.
For O=c1[nH]c(-c2ccccn2)nc2c1CCCN2 the result was Mtb glucose medium: 35.01%.
For COCC(C)(N)c1ccccc1 (stereo unspecified) the result was Mtb glucose medium: -3.394%.
For Cn1nnnc1SCC(=O)Nc1cc(Cl)ccc1C#N the result was Mtb glucose medium: 7.832%.
For CCN(CCC#N)C(=O)CSc1ccoc1C the result was Mtb glucose medium: 13.16%.
For COC(=O)NC(C)C(=O)NCCCc1nc(C)cs1 (stereo unspecified) the result was Mtb cholesterol medium: -12.73%.
For CSc1ccc(NC(=O)C(C)N2CCN(C)CC2)cn1 (stereo unspecified) the result was Mtb cholesterol medium: -3.441%.
For CC(=O)NC1CCN(C(=O)CSC(C)(C)C)CC1 the result was Mtb cholesterol medium: 6.75%.
For CN(CCCNC(=O)C1CCC(=O)N1)c1ccccc1 (stereo unspecified) the result was Mtb glucose medium: 13.56%.
For CC(C)N1CCC(NCCc2ccccn2)CC1 the result was Mtb glucose medium: -10.99%.
For O=C(Cc1cccc(O)c1)N1CCCC1 the result was Mtb glucose medium: 17.91%.
For COc1ccc(OCCN2CCNCC2)cc1 the result was Mtb glucose medium: -18.3%.
For NC(=O)c1ccc(-c2ccc(F)cc2)o1 the result was Mtb cholesterol medium: 15.52%; Mtb glucose medium: 24.33%.
For CCC(C)(C#N)NC(=O)c1ccc(C)nc1 (stereo unspecified) the result was Mtb glucose medium: 4.887%.
For CC(C)CNC(=O)c1[nH]cnc1C(=O)N1CCCCC1 the result was Mtb glucose medium: 15.82%.
For Cn1ccnc1CSCCN1CCOCC1 the result was Mtb glucose medium: 4.44%.
For CN(C)c1ncccc1CNC(=O)NCC1CCCO1 (stereo unspecified) the result was Mtb glucose medium: 0.5596%.
For CN1CCCC(N2C(=O)c3ccccc3C2=O)C1=O (stereo unspecified) the result was Mtb glucose medium: 7.084%.
For CC1(C)CCC(CO)NC1 (stereo unspecified) the result was Mtb glucose medium: 3.608%.
For CCNC(=O)C1CCCN1C(=O)Nc1ccccc1 (stereo unspecified) the result was Mtb cholesterol medium: -5.795%.
For CC(=O)NCc1ccc(-c2csc(N)n2)s1 the result was Mtb glucose medium: 29.61%.
For CC(C)N1CCN(C2CCNCC2)CC1 the result was Mtb glucose medium: 1.279%.
For CCc1c(C)nn(CCNC(=O)[C@H](C)NC)c1C the result was Mtb glucose medium: 1.617%.
For CN(Cc1cc(Br)cs1)C(=O)CC1(N)CCC1 the result was Mtb glucose medium: 53.78%.
For COc1cc(OC)cc(Oc2cccc(CN)c2)c1 the result was Mtb cholesterol medium: -1.329%.
For CCn1cccc(N)c1=O the result was Mtb glucose medium: -33.03%.
For COc1ccnc(N)c1 the result was Mtb cholesterol medium: -13.33%.
For NC1CCN(c2ccccn2)C1 (stereo unspecified) the result was Mtb cholesterol medium: 14.27%; Mtb glucose medium: 13.69%.
For COC(=O)c1csc(NC(=O)c2cnn(C)c2)c1 the result was Mtb glucose medium: 1.171%.
For Cc1cc(CNc2cc(C(N)=O)ccc2C)no1 the result was Mtb glucose medium: 31.45%.
For CNC(=O)CSCc1nc(-c2ccccc2C)no1 the result was Mtb cholesterol medium: 78.91%; Mtb glucose medium: 66.58%.
For COc1cc(F)c(NC(=O)N2CCC(O)CC2)cc1F the result was Mtb glucose medium: -2.818%.
For NC(=O)CN(CCc1ccncc1)C1CCCC1 the result was Mtb cholesterol medium: 10.31%.
For CNC(=O)Nc1cc(Cl)cc2c1OCC2 the result was Mtb cholesterol medium: 13.17%.
For COC1CCC(CCN)CC1 (stereo unspecified) the result was Mtb glucose medium: 10.6%.
For CC1(CO)CCCCN1 (stereo unspecified) the result was Mtb glucose medium: -16.06%.

For reference, 2 entries once more:

{"compound": "Cn1nnnc1SCC(=O)Nc1cc(Cl)ccc1C#N", "Mtb glucose medium": 7.832}
{"compound": "CCC(C)(C#N)NC(=O)c1ccc(C)nc1", "stereo": "stereo unspecified", "Mtb glucose medium": 4.887}